Compound potency records, mixed from different reports. Data source: NIAID ChemDB in PubChem.

Shared fields: tests in culture; agent: HIV-1; method: luciferase; endpoint: EC50

Rows are shuffled and stem from different studies. ECn is the concentration giving n% inhibition of infection, replication or growth. a–b is a range or a potency band.

CN(C)C(=O)C(=O)NC12CCC(CC1)Cn1c2nc(C(=O)NCc2ccc(N(C)C)cc2)c(O)c1=O ; conditions: pseudotyped ; changes: (delta)nef ; cell line: MT-2 ; strain or isolate: NL4-3 ; result: <0.01 µM
COC(=O)CNc1c(C(=O)NCc2ccc(F)cc2F)c(=O)n(O)c2ncccc12 ; conditions: pseudotyped ; changes: N155H ; cell line: HOS ; result: 0.19 µM
CN(C)C(=O)C(=O)NC12CCC(CC1)Cn1c2nc(C(=O)NCc2ccncc2)c(O)c1=O ; conditions: pseudotyped ; changes: (delta)nef ; cell line: MT-2 ; strain or isolate: NL4-3 ; result: <0.01 µM
COc1cnc(-n2cnc(C)n2)c2[nH]cc(C(=O)C(=O)N3CCC(=C(c4ccccc4)c4cncc(CO)c4)CC3)c12 ; cell line: HeLa ; result: <1 µM
Oc1cccc2ccc(/C=N/Nc3ccccc3)nc12 ; cell line: TZM-bl ; strain or isolate: VB59 ; result: 16.6 µM
COc1ccccc1C(=C1CCN(C(=O)C(=O)c2c[nH]c3c(OC)ncc(OC)c23)CC1)c1ccccc1 ; cell line: HeLa ; result: <1 µM
COc1cnc(-n2ccc(COC(=O)CC(C)(C)C(=O)O)n2)c2[nH]cc(C(=O)C(=O)N3CCN(C(=O)c4ccccc4)CC3)c12 ; cell line: HeLa ; result: <1 µM
Cc1cn([C@H]2C[C@H](N=[N+]=[N-])[C@@H](CO)O2)c(=O)[nH]c1=O ; cell line: TZM-bl ; strain or isolate: SF162 ; result: 0.00531 µM
COc1ncc(OC)c2c(C(=O)C(=O)N3CCN(C(=O)c4ccccc4)[C@H](C)C3)c[nH]c12 ; cell line: HeLa ; result: 0.0002–1 µM
COC(=O)c1cccc(Cn2ccc3ccc(-c4ccc5ccn(Cc6cccc(C(=O)Oc7c(F)c(F)c(S(=O)(=O)[O-])c(F)c7F)c6)c5c4)cc32)c1.[Na+] ; conditions: pseudotyped ; cell line: TZM-bl ; strain or isolate: HXB2 ; result: 0.09 µM
COc1cccc(C(=O)[C@@H]2[C@@H](c3ccc(O)c(Cl)c3)[C@](C#N)(C(N)=O)[C@H]3CCc4cc(C)ccc4N23)c1 ; cell line: 293T ; result: 45 µM
Cc1cc(CNC(=O)c2nc3n(c(=O)c2O)CC2CCC3(NC(=O)c3cccnn3)CC2)ccc1F ; conditions: pseudotyped ; changes: (delta)nef ; cell line: MT-2 ; strain or isolate: NL4-3 ; result: <0.001 µM
COc1cnc(-n2cnc(C)n2)c2c1c(C(=O)C(=O)N1CCN(C(=O)c3ccccc3)CC1)cn2COP(=O)(O)O ; changes: M426P ; cell line: U-87 ; strain or isolate: NL4-3 ; result: 0.0099 µM
Cn1cc(C(=O)N2CCC(c3cc(CCOc4ccccc4C(F)(F)F)[nH]n3)C2)cn1 ; cell line: TZM-bl ; strain or isolate: BaL ; result: 1.57 µM
C[C@@H]1CN(C(=O)C(=O)c2c[nH]c3c(-n4ccnn4)ncc(F)c23)CCN1C(=O)c1ccccc1 ; cell line: HeLa ; result: ≤0.0002 µM
CC(=O)O[C@@H]1C[C@@H](C)[C@@H]2C[C@@H]2C2=C(C(=O)OC2)[C@@H]1[C@H](C)CCC=C(C)C ; conditions: pseudotyped ; cell line: 293T ; result: >30 µM
Cc1c(CN2CCC(c3cc(CCOc4ccc(C(F)(F)F)cc4)[nH]n3)C2)cnn1C ; cell line: TZM-bl ; strain or isolate: BaL ; result: >100 µM
Cc1ccc2c(c1)CC[C@H]1N2[C@H](C(=O)c2ccsc2)[C@@H](c2ccc(Cl)cc2)[C@]1(C#N)C(N)=O ; cell line: 293T ; result: 46 µM
CC(=O)O[C@H]1[C@@H]2C(C)=CC=C[C@]2(C)C(=O)C[C@@H]2[C@]1(C)CC[C@@]2(O)C(C)C ; conditions: pseudotyped ; cell line: 293T ; result: >30 µM
Cc1ccc(-c2c([C@H](OC(C)(C)C)C(=O)O)c(C(F)(F)F)c3c(c2C(F)(F)F)CN(C(=O)c2cccc(F)c2)C3)cc1 ; cell line: MT-4 ; result: 0.005 µM
COc1cnc(-n2cc(C(F)(F)F)cn2)c2[nH]cc(C(=O)C(=O)N3CCN(C(=O)c4ccccc4)CC3)c12 ; cell line: HeLa ; result: <1 µM
CC(C)=CCC[C@@H](C)[C@@H]1CCC(C)=CC[C@H](O)/C(C)=C/[C@@H]1O ; conditions: pseudotyped ; cell line: 293T ; result: >30 µM
COc1cnc(-n2cnc(C(=O)N(C)C)n2)c2[nH]cc(C(=O)C(=O)N3CCN(C(=O)c4ccccc4)CC3)c12 ; cell line: HeLa ; result: ≤0.0002 µM
Cc1c(-c2c([C@H](OC(C)(C)C)C(=O)O)c(C(F)(F)F)c3c(c2C(F)(F)F)CN(C(=O)c2cccc(F)c2)C3)cc(F)c2c1CCCO2 ; cell line: MT-4 ; result: 0.004 µM
Cc1ccc(N/N=C/c2ccc3cccc(O)c3n2)cc1 ; cell line: TZM-bl ; strain or isolate: UG070 ; result: 54.6 µM
Oc1cc(/C=C/c2cc(O)c(O)c(O)c2)cc(O)c1O ; cell line: TZM-bl ; strain or isolate: BaL ; result: 1.69 µM
COc1ccc(OCCc2cc(C3CCN(C(=O)c4cnn(C)c4)C3)n[nH]2)cc1 ; cell line: TZM-bl ; strain or isolate: BaL ; result: >100 µM
COc1c(Br)c2c(c3oc4ccccc4c(=O)c13)[C@@H](OC(=O)C13CCC(C)(C(=O)O1)C3(C)C)[C@@H](OC(=O)C13CCC(C)(C(=O)O1)C3(C)C)C(C)(C)O2 ; cell line: TZM-bl ; strain or isolate: NL4-3 ; result: >4 µM
O=C(C1CCCCC1)N1CCC(c2cc(CCOc3cccc(C(F)(F)F)c3)[nH]n2)C1 ; cell line: TZM-bl ; strain or isolate: BaL ; result: 2.3 µM
COc1cnc(-n2cnc(NCc3ccccn3)n2)c2[nH]cc(C(=O)C(=O)N3CCN(C(=O)c4ccccc4)[C@H](C)C3)c12 ; cell line: HeLa ; result: <1 µM
CC(C)(C)c1ccc(-n2nnnc2SCC(=O)Nc2ccccc2Cl)c(Br)c1 ; cell line: C8166 ; strain or isolate: WT ; result: <0.05 µM
NC(=O)c1ncc(Cl)c2c(C(=O)C(=O)N3CCN(C(=O)c4ccccc4)CC3)c[nH]c12 ; cell line: HeLa ; result: ≤0.0002 µM
Cc1ccc(CNC(=O)c2nc3n(c(=O)c2O)CC2CCC3(NC(=O)C(=O)N(C)C)CC2)cc1 ; conditions: pseudotyped ; changes: (delta)nef ; cell line: MT-2 ; strain or isolate: NL4-3 ; result: <0.01 µM
C[C@@H]1CCO[C@H]2Cn3cc(C(=O)NCc4ccc(F)cc4F)c(=O)c(O)c3C(=O)N12 ; changes: M184V-R263K ; cell line: TZM-bl ; strain or isolate: NL4-3 ; result: 0.0044 µM
COc1ncc(OC)c2c(C(=O)C(=O)N3CCC(=C(C#N)c4c(C)sc(C)c4C)CC3)c[nH]c12 ; cell line: HeLa ; result: >5 µM
CN(C)C(=O)C(=O)NC12CCC(CC1)Cn1c2nc(C(=O)NCc2cc(Cl)cc(OC(F)(F)F)c2)c(O)c1=O ; conditions: pseudotyped ; changes: (delta)nef ; cell line: MT-2 ; strain or isolate: NL4-3 ; result: <0.01 µM
Oc1cccc2ccc(/C=N/Nc3ccc(C(F)(F)F)cc3)nc12 ; cell line: TZM-bl ; strain or isolate: VB59 ; result: >150 µM
COc1cc2c(c3oc4cc(Br)ccc4c(=O)c13)[C@@H](OC(=O)C13CCC(C)(C(=O)O1)C3(C)C)[C@@H](OC(=O)C13CCC(C)(C(=O)O1)C3(C)C)C(C)(C)O2 ; cell line: TZM-bl ; strain or isolate: NL4-3 ; result: >4 µM
COc1cccc(C(=O)C2C(c3ccc(Cl)cc3)C(C#N)(C(N)=O)C3CCc4cc(C)ccc4N23)c1 ; cell line: 293T ; result: 12.5 µM
CC(C)c1ccc(N/N=C/c2ccc3cccc(O)c3n2)cc1 ; cell line: TZM-bl ; strain or isolate: VB59 ; result: 54.46 µM
COc1ncc(OC)c2c(C(=O)C(=O)N3CCN(C(=O)c4ccccc4)C[C@H]3C)c[nH]c12 ; cell line: HeLa ; result: 0.0002–1 µM
COc1cnc(-n2ccnn2)c2[nH]cc(C(=O)C(=O)N3CCC(=C(c4ccccc4)c4nnco4)CC3)c12 ; cell line: HeLa ; result: <1 µM
COC(=O)C1=C2Nc3ccccc3[C@@]23CCN2C[C@]4(C[C@@H]5C[C@]67CC(=O)O[C@H]6CCC6NC[C@@]8(c9cccc(OC)c9N(C4)[C@@]58O)[C@@H]67)[C@@H]4OCC[C@]4(C1)[C@H]23 ; cell line: OM-10.1 ; result: 2.5 µM
Cc1cc(S(N)(=O)=O)ccc1NC(=O)COc1ccc(Cl)cc1C(=O)c1cc(F)cc(C(F)(F)F)c1 ; changes: RT-K103N G190A ; cell line: HELA MAGI ; strain or isolate: IIIB ; result: 0.016 µM
Cc1nc2c(ccn2Cc2cccc(Cl)c2F)c(-c2ccc3c(c2)CCCO3)c1C(OC(C)(C)C)C(=O)O ; cell line: MT-4 ; result: 0.068 µM
Oc1cccc2ccc(/C=N/Nc3ccc(Cl)cc3)nc12 ; cell line: TZM-bl ; strain or isolate: UG070 ; result: 73.18 µM
CC(C)=CCC[C@@H](C)[C@H]1C2=C(C(=O)OC2)[C@H]2C[C@H]2[C@H](C)C[C@H]1O ; conditions: pseudotyped ; cell line: 293T ; result: >30 µM
Cc1ccccc1N/N=C/c1ccc2cccc(O)c2n1 ; cell line: TZM-bl ; strain or isolate: UG070 ; result: >150 µM
Cc1nc2c(ccn2Cc2cccc(F)c2F)c(-c2ccc3c(c2C)NCCO3)c1[C@H](OC(C)(C)C)C(=O)O ; cell line: MT-4 ; result: 0.14 µM
O=C(NC12CCC(CC1)Cn1c2nc(C(=O)NCc2ccc(F)cc2)c(O)c1=O)c1ccon1 ; conditions: pseudotyped ; changes: (delta)nef ; cell line: MT-2 ; strain or isolate: NL4-3 ; result: <0.01 µM
Oc1cccc2ccc(/C=N/Nc3ccc(F)cc3F)nc12 ; cell line: TZM-bl ; strain or isolate: VB59 ; result: 42.87 µM

For reference, 4 entries again:

{"SMILES": "COc1cc2c(c3oc4cc(Br)ccc4c(=O)c13)[C@@H](OC(=O)C13CCC(C)(C(=O)O1)C3(C)C)[C@@H](OC(=O)C13CCC(C)(C(=O)O1)C3(C)C)C(C)(C)O2", "cell line": "TZM-bl", "strain or isolate": "NL4-3", "result": ">4 µM"}
{"SMILES": "Cc1ccc(CNC(=O)c2nc3n(c(=O)c2O)CC2CCC3(NC(=O)C(=O)N(C)C)CC2)cc1", "conditions": "pseudotyped", "changes": "(delta)nef", "cell line": "MT-2", "strain or isolate": "NL4-3", "result": "<0.01 µM"}
{"SMILES": "Oc1cccc2ccc(/C=N/Nc3ccccc3)nc12", "cell line": "TZM-bl", "strain or isolate": "VB59", "result": "16.6 µM"}
{"SMILES": "COc1cnc(-n2ccc(COC(=O)CC(C)(C)C(=O)O)n2)c2[nH]cc(C(=O)C(=O)N3CCN(C(=O)c4ccccc4)CC3)c12", "cell line": "HeLa", "result": "<1 µM"}